Test results from US20110014209A1 (MACFARLANE BURNET INSTITUTE FOR MEDICAL RESEARCH AND PUBLIC …, published 2011).

Target: T1, CD81 MBP-LEL (maltose-binding protein fused to the CD81 large extracellular loop, residues 113-201) (human, UniProt P60033 113-201)
T1 sequence: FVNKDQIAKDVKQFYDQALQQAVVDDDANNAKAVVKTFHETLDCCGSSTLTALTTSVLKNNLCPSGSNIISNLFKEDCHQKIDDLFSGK

B1: E2Δ12-his mature protein (other)
chain: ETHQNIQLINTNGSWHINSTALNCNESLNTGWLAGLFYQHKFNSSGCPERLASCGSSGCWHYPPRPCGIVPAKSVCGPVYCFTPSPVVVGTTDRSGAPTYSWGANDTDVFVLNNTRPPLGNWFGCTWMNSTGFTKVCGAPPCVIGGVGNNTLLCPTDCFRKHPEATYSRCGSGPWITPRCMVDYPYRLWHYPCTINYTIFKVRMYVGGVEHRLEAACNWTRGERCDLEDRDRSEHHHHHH
binding result: binds
